Test system: Arcobacter sp. strain 97AE3-12
Assay: Contamination prevention of the nutrient feed reservoir during continuous growth in a bioreactor (Example 2); ion chromatography of feed reservoir and effluent
Type: cell-based

| SMILES | Concentration in bioreactor effluent (7) after 20 days of feeding | Concentration in bioreactor effluent (7) after 26 days of feeding |
| --- | --- | --- |
| CC(O)C(=O)O (stereo not shown) [Lactate, lactate] | 0 ppm | 0 ppm |
| O=[N+]([O-])O [Nitrate, nitrate] | 0 ppm | 13 ppm |

Source: patent publication US20120301951A1, “PREVENTION OF CONTAMINATION OF NUTRIENT FEED RESERVOIRS & FEED LINES IN BIOREACTOR SYSTEMS” (E. I. DU PONT DE NEMOURS AND COMPANY, priority 2010, published 2012)
